Results taken from patent publication US20220089698A1, “ANTIBODIES THAT TARGET HIV GP120 AND METHODS OF USE” (published 2022).

What was measured:
Experiment in all cases: cell-based or functional assay
[1] = biological target: HIV-1 envelope glycoprotein gp120 of viral isolate 92US657 (HIV-1)
[2] = biological target: HIV-1 envelope glycoprotein gp120 of viral isolate 92US712 (HIV-1)
[3] = biological target: HIV-1 envelope glycoprotein gp120 of virus BaL (HIV-1 BaL (lab adapted strain, subtype …))
[4] = biological target: HIV-1 envelope glycoprotein gp120 of virus 92US657 (HIV-1 subtype B, isolate 92US657)
[5] = biological target: HIV-1 envelope glycoprotein gp120 of virus CHO77 (HIV-1 subtype B, virus CHO77)

Binder	ADCC EC50 (µg/mL), NK Donor 1, 92US657-infected cells [1] [µg/mL]	ADCC EC50 (µg/mL), NK Donor 2, 92US657-infected cells [1] [µg/mL]	ADCC EC50 (µg/mL), NK Donor 3, 92US657-infected cells [1] [µg/mL]	ADCC Emax (%), NK Donor 1, 92US657-infected cells [1] [%]	ADCC Emax (%), NK Donor 2, 92US657-infected cells [1] [%]	ADCC Emax (%), NK Donor 3, 92US657-infected cells [1] [%]	ADCC EC50 (µg/mL), NK Donor 1, 92US712-infected cells [2] [µg/mL]	ADCC EC50 (µg/mL), NK Donor 2, 92US712-infected cells [2] [µg/mL]	ADCC EC50 (µg/mL), NK Donor 3, 92US712-infected cells [2] [µg/mL]	ADCC Emax (%), NK Donor 1, 92US712-infected cells [2] [%]	ADCC Emax (%), NK Donor 2, 92US712-infected cells [2] [%]	ADCC Emax (%), NK Donor 3, 92US712-infected cells [2] [%]	Virus Neutralization Potency (IC50) [3] [µg/mL]	Virus Neutralization Potency (IC50) [4] [µg/mL]	Virus Neutralization Potency (IC50) [5] [µg/mL]
Antibody A-3 (antibody) heavy: QVQLLQSGAAVTKPGASVRVSCEASGYNIRDYFIHWWRQAPGQGLQWVGWINPKTGQPNNPRQFQGRVSLTRHASWDFDTFSFYMDLKALRSDDTAVYFCARQRSDYWDFDVWGSGTQVTVSSASTKGPSVFPLAPSSKSTSGGTAALGCLVKDYFPEPVTVSWNSGALTSGVHTFPAVLQSSGLYSLSSVVTVPSSSLGTQTYICNVNHKPSNTKVDKKVEPKSCDKTHTCPPCPAPELLGGPDVFLFPPKPKDTLMISRTPEVTCVVVDVSHEDPEVKFNWYVDGVEVHNAKTKPREEQYNSTYRVVSVLTVLHQDWLNGKEYKCKVSNKALPAPEEKTISKAKGQPREPQVYTLPPSREEMTKNQVSLTCLVKGFYPSDIAVEWESNGQPENNYKTTPPVLDSDGSFFLYSKLTVDKSRWQQGNVFSCSVLHEALHSHYTQKSLSLSPGK light: not shown	0.68	0.67	1.39	49	49	56	0.07	0.08	0.2	77	59	67			
Antibody A-1 (antibody, human IgG1, kappa) heavy: QVQLLQSGAAVTKPGASVRVSCEASGYNIRDYFIHWWRQAPGQGLQWVGWINPKTGQPNNPRQFQGRVSLTRHASWDFDTFSFYMDLKALRSDDTAVYFCARQRSDYWDFDVWGSGTQVTVSSASTKGPSVFPLAPSSKSTSGGTAALGCLVKDYFPEPVTVSWNSGALTSGVHTFPAVLQSSGLYSLSSVVTVPSSSLGTQTYICNVNHKPSNTKVDKKVEPKSCDKTHTCPPCPAPELLAGPDVFLFPPKPKDTLMISRTPEVTCVVVDVSHEDPEVKFNWYVDGVEVHNAKTKPREEQYNSTYRVVSVLTVLHQDWLNGKEYKCKVSNKALPLPEEKTISKAKGQPREPQVYTLPPSREEMTKNQVSLTCLVKGFYPSDIAVEWESNGQPENNYKTTPPVLDSDGSFFLYSKLTVDKSRWQQGNVFSCSVLHEALHSHYTQKSLSLSPGK light: not shown													0.16	1.31	
Antibody 1.6.1-1 (antibody, human IgG1, kappa) heavy: QVQLLQSGAEVTKPGASVRVSCEASGYNIRDYFIHWWRQAPGQGLQWVGWINPKTGQPNNPRQFQGRVSLTRHASWDFDTFSFYMDLKALRSDDTAVYFCARQRSDYWDFDVWGSGTQVTVSSASTKGPSVFPLAPSSKSTSGGTAALGCLVKDYFPEPVTVSWNSGALTSGVHTFPAVLQSSGLYSLSSVVTVPSSSLGTQTYICNVNHKPSNTKVDKKVEPKSCDKTHTCPPCPAPELLAGPDVFLFPPKPKDTLMISRTPEVTCVVVDVSHEDPEVKFNWYVDGVEVHNAKTKPREEQYNSTYRVVSVLTVLHQDWLNGKEYKCKVSNKALPLPEEKTISKAKGQPREPQVYTLPPSREEMTKNQVSLTCLVKGFYPSDIAVEWESNGQPENNYKTTPPVLDSDGSFFLYSKLTVDKSRWQQGNVFSCSVLHEALHSHYTQKSLSLSPGK light: not shown													0.39	1.32	0.1
Antibody 1.4.1-1 (antibody, human IgG1, kappa) heavy: QVQLVQSGAAVTKPGASVRVSCEASGYNIRDYFIHWWRQAPGQGLQWVGWINPKTGQPNNPRQFQGRVSLTRHASWDFDTFSFYMDLKALRSDDTAVYFCARQRSDYWDFDVWGSGTQVTVSSASTKGPSVFPLAPSSKSTSGGTAALGCLVKDYFPEPVTVSWNSGALTSGVHTFPAVLQSSGLYSLSSVVTVPSSSLGTQTYICNVNHKPSNTKVDKKVEPKSCDKTHTCPPCPAPELLAGPDVFLFPPKPKDTLMISRTPEVTCVVVDVSHEDPEVKFNWYVDGVEVHNAKTKPREEQYNSTYRVVSVLTVLHQDWLNGKEYKCKVSNKALPLPEEKTISKAKGQPREPQVYTLPPSREEMTKNQVSLTCLVKGFYPSDIAVEWESNGQPENNYKTTPPVLDSDGSFFLYSKLTVDKSRWQQGNVFSCSVLHEALHSHYTQKSLSLSPGK light: not shown													0.21	1.35	0.04
Antibody A-5 (antibody) heavy: QVQLLQSGAAVTKPGASVRVSCEASGYNIRDYFIHWWRQAPGQGLQWVGWINPKTGQPNNPRQFQGRVSLTRHASWDFDTFSFYMDLKALRSDDTAVYFCARQRSDYWDFDVWGSGTQVTVSSASTKGPSVFPLAPSSKSTSGGTAALGCLVKDYFPEPVTVSWNSGALTSGVHTFPAVLQSSGLYSLSSVVTVPSSSLGTQTYICNVNHKPSNTKVDKKVEPKSCDKTHTCPPCPAPELLGGPDVFLFPPKPKDTLMISRTPEVTCVVVDVSHEDPEVKFNWYVDGVEVHNAKTKPREEQYNSTYRVVSVLTVLHQDWLNGKEYKCKVSNKALPLPEEKTISKAKGQPREPQVYTLPPSREEMTKNQVSLTCLVKGFYPSDIAVEWESNGQPENNYKTTPPVLDSDGSFFLYSKLTVDKSRWQQGNVFSCSVLHEALHSHYTQKSLSLSPGK light: not shown	0.57	0.83	0.76	58	61	61	0.19	0.08	0.09	79	61	66			
Antibody A-6 (antibody) heavy: QVQLLQSGAAVTKPGASVRVSCEASGYNIRDYFIHWWRQAPGQGLQWVGWINPKTGQPNNPRQFQGRVSLTRHASWDFDTFSFYMDLKALRSDDTAVYFCARQRSDYWDFDVWGSGTQVTVSSASTKGPSVFPLAPSSKSTSGGTAALGCLVKDYFPEPVTVSWNSGALTSGVHTFPAVLQSSGLYSLSSVVTVPSSSLGTQTYICNVNHKPSNTKVDKKVEPKSCDKTHTCPPCPAPELLGGPSVFLLPPKPKDTLMISRTPEVTCVVVDVSHEDPEVKFNWYVDGVEVHNAKTKPPEEQYNSTLRVVSILTVLHQDWLNGKEYKCKVSNKALPAPIEKTISKAKGQPREPQVYTLPPSREEMTKNQVSLTCLVKGFYPSDIAVEWESNGQPENNYKTTPLVLDSDGSFFLYSKLTVDKSRWQQGNVFSCSVLHEALHSHYTQKSLSLSPGK light: not shown	3.93	1.21	3.21	54	53	52	0.27	0.54	0.18	68	54	51			
Antibody A-4 (antibody) heavy: QVQLLQSGAAVTKPGASVRVSCEASGYNIRDYFIHWWRQAPGQGLQWVGWINPKTGQPNNPRQFQGRVSLTRHASWDFDTFSFYMDLKALRSDDTAVYFCARQRSDYWDFDVWGSGTQVTVSSASTKGPSVFPLAPSSKSTSGGTAALGCLVKDYFPEPVTVSWNSGALTSGVHTFPAVLQSSGLYSLSSVVTVPSSSLGTQTYICNVNHKPSNTKVDKKVEPKSCDKTHTCPPCPAPELLAGPDVFLFPPKPKDTLMISRTPEVTCVVVDVSHEDPEVKFNWYVDGVEVHNAKTKPREEQYNSTYRVVSVLTVLHQDWLNGKEYKCKVSNKALPAPEEKTISKAKGQPREPQVYTLPPSREEMTKNQVSLTCLVKGFYPSDIAVEWESNGQPENNYKTTPPVLDSDGSFFLYSKLTVDKSRWQQGNVFSCSVLHEALHSHYTQKSLSLSPGK light: not shown	0.6	1.21	1.64	52	53	50	0.2	0.13	0.4	78	61	64			
Antibody 1.5.1-1 (antibody, human IgG1, kappa) heavy: QVQLVQSGAAVTKPGASVRVSCKASGYNIRDYFIHWWRQAPGQGLQWVGWINPKTGQPNNPRQFQGRVSLTRHASWDFDTFSFYMDLKALRSDDTAVYFCARQRSDYWDFDVWGSGTQVTVSSASTKGPSVFPLAPSSKSTSGGTAALGCLVKDYFPEPVTVSWNSGALTSGVHTFPAVLQSSGLYSLSSVVTVPSSSLGTQTYICNVNHKPSNTKVDKKVEPKSCDKTHTCPPCPAPELLAGPDVFLFPPKPKDTLMISRTPEVTCVVVDVSHEDPEVKFNWYVDGVEVHNAKTKPREEQYNSTYRVVSVLTVLHQDWLNGKEYKCKVSNKALPLPEEKTISKAKGQPREPQVYTLPPSREEMTKNQVSLTCLVKGFYPSDIAVEWESNGQPENNYKTTPPVLDSDGSFFLYSKLTVDKSRWQQGNVFSCSVLHEALHSHYTQKSLSLSPGK light: not shown													0.26	0.85	0.14
Antibody 1.3.1-1 (antibody, human IgG1, kappa) heavy: QVSLLQSGAAVTKPGASVRVSCEASGYNIRDYFIHWWRQAPGQGLQWVGWINPKTGQPNNPRQFQGRVSLTRHASWDFDTFSFYMDLKALRSDDTAVYFCARQRSDYWDFDVWGSGTQVTVSSASTKGPSVFPLAPSSKSTSGGTAALGCLVKDYFPEPVTVSWNSGALTSGVHTFPAVLQSSGLYSLSSVVTVPSSSLGTQTYICNVNHKPSNTKVDKKVEPKSCDKTHTCPPCPAPELLAGPDVFLFPPKPKDTLMISRTPEVTCVVVDVSHEDPEVKFNWYVDGVEVHNAKTKPREEQYNSTYRVVSVLTVLHQDWLNGKEYKCKVSNKALPLPEEKTISKAKGQPREPQVYTLPPSREEMTKNQVSLTCLVKGFYPSDIAVEWESNGQPENNYKTTPPVLDSDGSFFLYSKLTVDKSRWQQGNVFSCSVLHEALHSHYTQKSLSLSPGK light: not shown													0.26	1.84	0.08
